Anti-infective test results gathered from many reports (values: NIAID ChemDB through PubChem).

Common to all: tests in culture; agent: Candida albicans; measure: MIC

Two numbers with a dash give a range or band. Blank or dashed fields: not listed here. Conditions beyond the fields shown may differ between rows.

smiles,strain or isolate,setting,result
CCCCCCCCCCNC1CCc2ccc(O)cc2C1,-,-,0.0625 µM
CCN1C2=NC[C@H](CC3CCCCC3)N2C[C@@H]1Cc1ccccc1,ATCC 10231,-,>64 µg/mL
C=C(Cc1ccc(O)cc1)C(=C)Cc1ccc(O)cc1,-,-,>200 µg/mL
Clc1ccc(-c2c(C(c3ccccc3)n3ccnc3)cnn2-c2ccc(Cl)cc2Cl)cc1,-,-,11.1 µM
Cc1c(N2CCC(CN)CC2)c(F)cn2c(=O)c(C(=O)O)cc(C3CC3)c12,CCH442,-,>100 µg/mL
[CH3][Sn]([CH3])([CH3])[NH]C(Cc1c[nH]c2ccccc12)C(=O)O,-,-,1 µg/mL
COc1cc(O)c2c(c1)C(=O)c1c(cc3c(c1O)-c1c(cc(C)c(C(=O)N[C@H](CO)C(=O)O)c1O)[C@H](O)[C@H]3O)C2=O,A9540,-,>100 µg/mL
Clc1cc2nc(C3CCNCC3)n(Cc3ccc(CNCCCn4ccnc4)cc3)c2cc1Cl,ATCC 10231,-,>100 µM
CCOC(=O)[C@@H](C)NC(=O)c1c(C)cc2c(c1O)-c1c(cc3c(c1O)C(=O)c1cc(OC)cc(O)c1C3=O)[C@H](O)[C@H]2O[C@@H]1O[C@H](C)[C@H](NC)[C@H](O[C@@H]2OC[C@@H](O)[C@H](O)[C@H]2O)[C@H]1O,A9540,-,>100 µg/mL
CC[C@]1(O)C[C@H]2CN(CCc3c([nH]c4ccccc34)[C@@](C(=O)OC)(c3cc4c(cc3OC)N(C=O)[C@H]3[C@@](O)(C(=O)OC)[C@H](OC(C)=O)[C@]5(CC)C=CCN6CC[C@]43[C@@H]65)C2)C1,-,-,500–1500 µg/mL
CC1=C(N2CCC[C@@H](NC(=O)[C@H](C)N)C2)C(F)=CN2C(=O)C(C(=O)O)=CC(C3CC3)C12,CCH442,-,>100 µg/mL
O=C1Nc2ccccc2C1=Nc1ccc(C(=O)c2ccc(N=C3C(=O)Nc4ccccc43)cc2)cc1,CIP 1180-79,-,<50 µg/mL
NC(=O)c1cc(F)ccc1SSc1ccc(F)cc1C(N)=O,ATCC 2091,-,30 µg/mL
O=C(O)C(Cc1cnc[nH]1)[NH][Sn]([c]1ccccc1)([c]1ccccc1)[c]1ccccc1,-,-,<12.5 µg/mL
CC(C)(C)C1CCC(CN2C3=NC[C@H](C4CCCCC4)N3C[C@H]2C2CCCCC2)CC1,ATCC 10231,-,>64 µg/mL
CCCCCCCCCNC1CCc2cccc(OC)c2C1,-,-,0.25 µM
COc1ccc2nc(Oc3ccc(F)cc3)c(C3C(C#N)=C(N)OC4=C3C(=O)CCC4)cc2c1,MTCC 227,-,500 µg/mL
CCCCNC(=O)c1cccc(C(F)(F)F)c1SSc1c(C(=O)NCCCC)cccc1C(F)(F)F,ATCC 2091,-,30 µg/mL
COc1ccc(NC(=S)NCCCC(C)=O)cc1,ATCC2094,-,>128 µg/mL
O=C1C(=Nc2ccc(Oc3ccc(N=C4C(=O)N(Cc5ccccc5)c5ccccc54)cc3)cc2)c2ccccc2N1Cc1ccccc1,CIP 1180-79,-,<50 µg/mL
CCN1C[C@]2(COC)CC[C@H](O)[C@]34C1[C@@](O)([C@@H](OC)[C@H]23)[C@@]1(O)C[C@H](OC)C2C[C@@H]4[C@@H]1[C@H]2OC(C)=O,-,-,4 µg/mL
O=C(NCc1c(Br)c(O)c(O)c(Br)c1Br)NCc1c(Br)c(O)c(O)c(Br)c1Br,ATCC 10231,-,10 µg/mL
[Cl][Sn]([c]1ccccc1)([c]1ccccc1)[c]1ccccc1,-,-,12.5 µg/mL
O=C1Nc2ccc(F)cc2C1=Nc1ccc(Cc2ccc(N=C3C(=O)Nc4ccc(F)cc43)cc2)cc1,CIP 1180-79,-,<50 µg/mL
Clc1cc2nc(C3CCNCC3)[nH]c2cc1Cl,ATCC 10231,-,>100 µM
Cc1ccc(Oc2nc3ccccc3cc2C2C(C#N)=C(N)OC3=C2C(=O)CC(C)(C)C3)cc1,MTCC 227,-,500 µg/mL
O=C1C(c2ccc(Cl)cc2)=[N+]([O-])c2ccccc21,-,-,>12.5 µg/mL
CCC(=O)CCCNC(=S)Nc1ccccc1,ATCC2094,-,>128 µg/mL
Cc1c(NCCN)c(F)cn2c(=O)c(C(=O)O)cc(C3CC3)c12.Cl,CCH442,-,25 µg/mL
C1CCC([C@H]2CN3C(=NC[C@H]3C3CCCCC3)N2CCC23CC4CC(CC(C4)C2)C3)CC1,ATCC 10231,-,10–16 µg/mL
Cc1c(N2CC[C@H](n3cccc3)C2)c(F)cn2c(=O)c(C(=O)O)cc(C3CC3)c12,CCH442,-,>100 µg/mL
C=C(Cc1ccc(O)cc1)C(=C)Cc1ccc(OC)cc1O,-,-,10 µg/mL
CCC(C)n1ncn(-c2ccc(N3CCN(c4ccc(OC[C@H]5CO[C@](Cn6cncn6)(c6ccc(Cl)cc6Cl)O5)cc4)CC3)cc2)c1=O,Isogenic isolate 14 Erg11 (4-5X) R467K,-,0.06 µg/mL
Cc1c(N2CCC(F)C2)c(F)cn2c(=O)c(C(=O)O)cc(C3CC3)c12,CCH442,-,>100 µg/mL
CC(C)C[C@@H]1CN2C(=NC[C@@H]2C2CCCCC2)N1CCC12CC3CC(CC(C3)C1)C2,ATCC 10231,-,>64 µg/mL
Oc1c(Cl)ccc2cccnc12,ATCC 60913,24 h,12 µg/mL
C/C=C\C(C)=C\[C@H](C)C(=O)C[C@H](O)CC1CC(=O)NC(=O)C1,-,-,>100 µg/mL
Oc1c(Cl)cc(Cl)c2cccnc12,ATCC 60913,48 h,6.2 µg/mL
CSCC[C@H](N)[C@@H]1CCN(c2c(F)cn3c(=O)c(C(=O)O)cc(C4CC4)c3c2C)C1,CCH442,-,>100 µg/mL
CCCCCC[C@H]1C(=O)O[C@H](C)[C@H](NC(=O)c2cccc(NC=O)c2O)C(=O)O[C@@H](C)[C@@H]1OC(=O)CC(C)C,IFO1061,-,0.1 µg/mL
C1CCC(C[C@@H]2CN3C(=NC[C@@H]3CC3CCCCC3)N2CCC23CC4CC(CC(C4)C2)C3)CC1,ATCC 10231,-,4–8 µg/mL
CCC(=O)CCCNC(=S)Nc1ccc(OC)cc1,ATCC2094,-,>128 µg/mL
COC(=O)[C@@H](CO)NC(=O)c1c(C)cc2c(c1O)-c1c(cc3c(c1O)C(=O)c1cc(OC)cc(O)c1C3=O)[C@H](O)[C@H]2O[C@@H]1O[C@H](C)[C@H](N(C)C)[C@H](O[C@@H]2OC[C@@H](O)[C@H](O)[C@H]2O)[C@H]1O,A9540,-,>100 µg/mL
CCN1C[C@]2(COC)CC[C@H](O)[C@]34C1[C@@](O)([C@@H](OC)[C@H]23)[C@@]1(O)C[C@H](OC)C2C[C@@H]4[C@@H]1[C@H]2O,-,-,4 µg/mL
COC(=O)CCNC(=S)Nc1ccc(OC)cc1,ATCC2094,-,6 µg/mL
C1CCC(C[C@H]2CN=C3N2C[C@H](C2CCCCC2)N3CCC23CC4CC(CC(C4)C2)C3)CC1,ATCC 10231,-,10–16 µg/mL
Clc1ccc(-n2ncc(C(c3ccccc3)n3ccnc3)c2-c2ccccc2)c(Cl)c1,-,-,≥100 µM
COc1cc(O)c2c(c1)C(=O)c1c(cc3c(c1O)-c1c(cc(C)c(C(=O)N[C@H](C)C(=O)O)c1O)[C@H](O[C@@H]1O[C@H](C)[C@H](N)[C@H](O[C@@H]4OC[C@@H](O)[C@H](O)[C@@H]4O)[C@H]1O)[C@H]3O)C2=O,ATCC 32354,-,1.6 µg/mL
CC/C=C/C(CC)C/C=C/[C@@]1(CC)C[C@H](C)[C@@H](CC(=O)O)OO1,-,-,5 µg/mL
CCN1C2=NC[C@H](Cc3ccccc3)N2C[C@H]1C,ATCC 10231,-,>250 µg/mL
O=[N+]([O-])c1ccc(Cn2c(C3CCNCC3)nc3cc(Cl)c(Cl)cc32)cc1,ATCC 10231,-,>100 µM
O=C1Nc2ccccc2C1=Nc1cccc(Cc2cccc(N=C3C(=O)Nc4ccccc43)c2)c1,CIP 1180-79,-,<50 µg/mL
CCN1C2=NC[C@H](Cc3ccccc3)N2C[C@H]1CC1CCCCC1,ATCC 10231,-,>64 µg/mL
Clc1cc2nc(C3CCNCC3)n(Cc3ccc(CBr)cc3)c2cc1Cl,ATCC 10231,-,>100 µM
O=C1C(=Nc2cccc(Cc3cccc(N=C4C(=O)N(Cc5ccccc5)c5ccccc54)c3)c2)c2ccccc2N1Cc1ccccc1,CIP 1180-79,-,<50 µg/mL
Cc1c(N)nc([C@H](CC(N)=O)NC[C@H](N)C(N)=O)nc1C(=O)N[C@H](C(=O)N[C@H](C)[C@@H](O)[C@H](C)C(=O)N[C@H](C(=O)NCCc1nc(-c2nc(C(=O)NCCC[S+](C)C)cs2)cs1)[C@@H](C)O)C(O[C@@H]1O[C@@H](CO)[C@@H](O)[C@H](O)[C@@H]1O[C@H]1O[C@H](CO)[C@@H](O)[C@H](OC(N)=O)[C@@H]1O)c1cnc[nH]1,-,-,500–1500 µg/mL
CC(=O)CCNC(=S)Nc1ccccc1,ATCC2094,-,>128 µg/mL
CC(C)=CCOc1cc(NC(=S)c2ccoc2C)ccc1Cl,-,-,>30 µM
Oc1cc(Cl)cc2cc(Cl)cnc12,ATCC 60913,24 h,12 µg/mL
C[C@@H]1[C@H](O)[C@@H](C)/C=C/C=C/CC/C=C/C=C/C=C/C=C/C(O[C@H]2O[C@H](C)[C@@H](O)[C@H](N)[C@@H]2O)CC2O[C@](O)(CC(O)C(O)CCC(O)CC(O)CC(O)CC(=O)O[C@H]1C)CC(O)C2C(=O)O,MTCC 227,-,100 µg/mL
Cc1c(N2CCC(CN)C2)c(F)cn2c(=O)c(C(=O)O)cc(C3CC3)c12,CCH442,-,>100 µg/mL
Clc1ccc(-n2ncc(C(c3ccccc3)n3ccnc3)c2-c2ccccc2Cl)c(Cl)c1,-,-,33.3 µM
CCCCn1sc2ccc(F)cc2c1=O,ATCC 2091,-,2.5 µg/mL
COc1ccc(-c2cc(=O)c3c(O)c(OC)c(OC)cc3o2)cc1OC,-,-,>100 µg/mL
CCOC(=O)CCNC(=S)Nc1ccccc1,ATCC2094,-,33 µg/mL
CCCCCCCCNC1CCc2ccc(OC)cc2C1,-,-,0.0625 µM
Cc1ccc2nc(Oc3ccc(F)cc3)c(C3C(C#N)=C(N)OC4=C3C(=O)CCC4)cc2c1,MTCC 227,-,250 µg/mL
O=C1C(c2ccc(Cl)cc2)=[N+]([O-])c2cc[n+]([O-])cc21,-,-,15.63 µg/mL
Cc1ccc2nc(Oc3ccccc3)c(C3C(C#N)=C(N)OC4=C3C(=O)CC(C)(C)C4)cc2c1,MTCC 227,-,250 µg/mL
O=C/C=C/c1ccccc1,STD no 126/09,-,100 µg/mL
CCCCCCCCCCNC1CCc2cc(OC)ccc2C1,-,-,0.03125 µM
C[C@H]1COC2=C(N3CCNCC3)C(F)=CN3C(=O)C(C(=O)O)=CC1C23,CCH442,-,>100 µg/mL
O=[N+]([O-])c1ccc(/C=C/c2ncc([N+](=O)[O-])s2)o1,E-3,-,4 µg/mL
O=C1C(=Nc2ccc(Cc3ccc(N=C4C(=O)N(Cc5ccccc5)c5ccccc54)cc3)cc2)c2ccccc2N1Cc1ccccc1,CIP 1180-79,-,<50 µg/mL
O=C1C(c2ccc(Oc3ccccc3)cc2)=[N+]([O-])c2ccccc21,-,-,>125 µg/mL
CC(C)C(=O)CCCNC(=S)Nc1ccc([N+](=O)[O-])cc1,ATCC2094,-,12 µg/mL
CN(Cc1cnc2nc(N)nc(N)c2n1)c1ccc(C(=O)N[C@@H](CCC(=O)O)C(=O)O)cc1,-,-,500–1500 µg/mL
CN[C@@H]1[C@H](O)[C@@H](O)[C@H](O[C@H]2c3cc(C)c(C(=O)N[C@H](C)C(=O)O)c(O)c3-c3c(cc4c(c3O)C(=O)c3cc(OC)cc(O)c3C4=O)[C@@H]2O)O[C@@H]1C,IAM4888,-,3.1 µg/mL